Measurements reported in PubChem BioAssay AID1706 (The Scripps Research Institute Molecular Screening Center, 2009).
The entries are a selection whose mix differs from that of the whole data set. Activity calls are given as the source filed them. Rule as the data show it: active = inhibition above about 12%; inactive = the rest.

These molecules were tested against Replicase polyprotein 1ab (Severe acute respiratory syndrome coronavirus) (UniProt P0C6X7) (assay: SARS-CoV 3CLpro protease inhibitors, primary screen, biochemical, quenched FRET (AID 1706)). Settings: recombinant SARS-CoV 3CLpro, quenched FRET peptide cleavage; at 6 µM; stronger effect = higher value.
For O=C(OCCN1CCN(CCOCc2ccccc2)CC1)C(O)(c1ccccc1)c1ccccc1, the inhibition was inactive: 4.23%.
